Biological target: T1, IZN36 (Human immunodeficiency virus type 1 group M subtype B, UniProt P04578)
T1 construct: an immobilized N-trimer mimic (IZN36); IZ designed trimeric isoleucine-zipper coiled coil, fused before the gp41 segment (own knowledge from the name IZN36); His-tag (cleaved yes); made in house; host or cells: E. coli BL21(DE3)pLysS, pET14b
Test: Surface plasmon resonance binding to immobilized N-trimer mimic IZN36
Parameters: species or system HIV-1
Settings: SPR, 20° C.
Description: To determine if the improved potency of these inhibitors stems from optimization of affinity for the pocket, the binding properties of the D-peptides to an immobilized N-trimer mimic (IZN36) was characterized using surface plasmon resonance (SPR) (Table 3).
SPR was performed essentially as described (Hamburger 2005). Briefly, biotinylated IZN36 was captured onto a SA (Pierce) surface, and a free SA surface served as the reference control. Each binding study was performed in duplicate at 20° C. using a 3-fold decreasing concentration series starting from 10 μM for D10-p5, 189 nM for PEG-(PIE)2, or 2 (all others). Only 2K-PIE1 and PEG-(PIE)2 required a specific regeneration step (one 20 s pulse of 6M GuHCl). The IZN36 surface was very stable to this regeneration condition. Data were analyzed using Scrubber2 (BioLogic Software).

| Substance | Kd |
| --- | --- |
| KGACDYKEWQWLCAA [PIE8] | 190 nM |
| KGACDYPEWQWLCAA [PIE7] | 120 nM |
| KGACDYPEWRWLCAA [PIE2] | 200 nM |
| KKGACDYPEWRWLCAA [2K-PIE2] | 260 nM |
| KKGACELLGWEWAWLCAA [D10-p5, reference compound] | 6800 nM |
| PEG-(KGACDYPEWQWLCAA)2 [PEG-(PIE7)2] | ~1 nM |

From patent publication US10512665B2, “Methods and compositions related to inhibition of viral entry” (University of Utah Research Foundation, priority 2007, dated 2019)
